The experiment addresses T1, soluble murine Fc-dectin-1a receptor (murine, UniProt Q6QLQ4 69-244).
T1 sequence: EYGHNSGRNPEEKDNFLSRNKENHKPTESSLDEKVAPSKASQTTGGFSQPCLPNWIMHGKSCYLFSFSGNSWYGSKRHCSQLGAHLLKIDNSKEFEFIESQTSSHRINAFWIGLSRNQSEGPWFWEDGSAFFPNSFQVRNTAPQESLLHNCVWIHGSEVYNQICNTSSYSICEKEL
Description: competitive ELISA.

B1: SeqID6+CRM197 conjugate without β-glucan modification (other)
peptide: CDMPVDPD
chain: not shown
For B1, the binding result is recorded as “no binding”.
